The values that follow come from paper PMC4929722.

Series [1] concerns GST-BTas-B (bovine foamy virus BFV3026 (clone pBS-BFV-B)). Briefly: EMSA. To be noted: DIG Gel Shift Kit (Roche), 100 ng protein, competitors 20-fold molar excess in pre-incubation, pH and temperature not stated, recombinant protein, protein details: N-terminal GST (pGEX6P-1), label: DIG (printed as digitonin).
Series [2] shares this test system. Briefly: competition with a labelled probe. To be noted: 20x unlabeled LTR competitor vs labeled LTR probe; EMSA, DIG Gel Shift Kit (Roche), 100 ng protein; competitors 20-fold molar excess in pre-incubation; pH and temperature not stated; recombinant protein; protein details: N-terminal GST (pGEX6P-1).

The exact form of at least one protein or probe is not confirmed. For part of these data: At least one verdict rests on a figure or table, not on a statement of the authors.

Consider “AGAGCTTAAAAATCAAGGTAAC (double strand) [BFV IP TRE probe]”, for which, in series [1], the binding result is “binds”.
On to “ATAGCTATTTTAGTAAGTTAGC (double strand) [BFV LTR TRE probe]”, for which the binding result in series [1] is given as “binds”.
As to “ATAGCTATTTTAGTAAGTTAGC (double strand) [unlabeled BFV LTR TRE competitor]”, the binding result in series [2] was “binds”.
